Compound potency records, mixed from different reports. Data source: NIAID ChemDB in PubChem.

Shared fields: whole-cell or culture tests; agent: Hepatitis B virus; endpoint: EC50

ECn is the concentration giving n% inhibition of infection, replication or growth. Blank or dashed fields: not listed here. Two numbers with a dash give a range or band. Conditions beyond the fields shown may differ between rows.

smiles	strain or isolate	read by	value
Nc1ccn([C@@H]2CS[C@H](CO)O2)c(=O)n1	WILD TYPE	-	0.47 µM
NC(=O)c1cn([C@H]2CC[C@@H](CO)C2)c2ncnc(N)c12	-	-	0.7 µM
CNC(=O)C1(NC(=O)C(=O)c2c(C)c(C(=O)Nc3ccc(F)c(F)c3)n3c2CCC3)CC(F)(F)C1	Genotype A	antigen / luminescence	0.009 µM
CC1=CO[C@@H]2OC3(C)CC[C@H]4[C@H](C)CCC1[C@@]24OO3	-	PCR	<0.1 µM
COc1ccccc1/C(Br)=C(\NC(=O)c1ccc([N+](=O)[O-])cc1)C(=O)N1CCCCC1	-	-	2.4 µM
OC[C@@H]1O[C@@H](n2c(Br)nc3ccccc32)[C@H](O)[C@@H]1O	-	-	8.8–16 µM
Nc1ccn([C@H]2CC[C@@H](CO)O2)c(=O)n1	-	-	2.8 µM
Nc1ncnc2c1ncn2CCOCP(=O)(O)O	Genotype A	antigen / luminescence	16 µM
CCCCNc1nc2cc(Cl)c(Cl)cc2n1[C@H]1C[C@@H](CO)[C@H](O)[C@@H]1O	-	-	1.4 µM
Nc1ccn([C@@H]2CS[C@H](CO)O2)c(=O)n1	M204V	-	0.96 µM
Cc1cn([C@H]2O[C@@H](CO)[C@H](O)[C@H]2F)c(=O)[nH]c1=O	M550I	-	>100 µM
O=c1[nH]c(=O)n([C@H]2C[C@H](Cl)[C@@H](CO)O2)cc1F	-	-	5 µg/mL
COc1ccc(Sc2nc(N)nc3c2ncn3CCOCP(=O)(OCC(F)(F)F)OCC(F)(F)F)cc1	-	-	<0.064 µM
C[C@H](Cn1cnc2c(N)ncnc21)OCP(=O)(O)O	M204I	-	1.95 µM